{
  "sequences": {"note": "By UniProt entry, the sequences of proteins in these tests, tags left out.", "UniProt Q05941, whole entry, looked up": "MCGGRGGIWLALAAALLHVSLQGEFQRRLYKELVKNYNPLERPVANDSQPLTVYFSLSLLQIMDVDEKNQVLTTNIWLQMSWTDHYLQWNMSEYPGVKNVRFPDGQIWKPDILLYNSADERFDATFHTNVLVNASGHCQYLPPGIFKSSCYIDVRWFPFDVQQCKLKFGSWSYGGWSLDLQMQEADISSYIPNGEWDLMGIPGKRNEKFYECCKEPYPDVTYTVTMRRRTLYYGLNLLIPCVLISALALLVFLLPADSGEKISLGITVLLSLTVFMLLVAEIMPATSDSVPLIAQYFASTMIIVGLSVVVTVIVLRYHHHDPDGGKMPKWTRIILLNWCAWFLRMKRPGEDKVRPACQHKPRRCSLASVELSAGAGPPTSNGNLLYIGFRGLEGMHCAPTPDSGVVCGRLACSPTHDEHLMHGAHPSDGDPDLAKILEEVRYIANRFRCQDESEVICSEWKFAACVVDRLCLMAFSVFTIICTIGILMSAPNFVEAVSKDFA"},
  "source": "ChEMBL document CHEMBL6134861",
  "about": "(J Med Chem, 2025)",
  "biological_target": "Neuronal acetylcholine receptor subunit alpha-7 (Rattus norvegicus) (UniProt Q05941)",
  "test": "Inhibition of rat alpha7 nAChR expressed in Xenopus laevis oocytes assessed as inhibition of acetylcholine-induced current by measuring fold change by two electrode voltage-clamp assay relative to LvID",
  "conditions": "Oocyte",
  "data": [
    {"smiles": "CC[C@H](C)[C@@H]1NC(=O)[C@H](CC(=O)O)NC(=O)[C@@H]2CCCN2C(=O)[C@H](CC(N)=O)NC(=O)[C@H](CCC(N)=O)NC(=O)[C@H](CC(C)C)NC(=O)[C@H]([C@@H](C)CC)NC(=O)[C@@H]2CSSC[C@H](NC(=O)C(N)CC(=O)O)C(=O)N[C@@H](CSSC[C@@H](C(N)=O)NC1=O)C(=O)N[C@@H](CO)C(=O)N[C@@H](C)C(=O)N1CCC[C@H]1C(=O)N1CCC[C@H]1C(=O)N2", "note": "(stereo partly specified)", "values": [
      {"measurement": "fold change (FC)", "result": 2.6}
    ]}
  ]
}
